Measured values reported in article PMC2807033, “Rep Provides a Second Motor at the Replisome to Promote Duplication of Protein-Bound DNA” (Molecular Cell, 2009).

Biological target: T1, Rep helicase (E. coli), wild type (E. coli, UniProt P09980 1-673)
T1 construct: Rep helicase, E. coli; Construct and purification are in the Supplemental Experimental Procedures; also called WT Rep
T1 sequence (looked up): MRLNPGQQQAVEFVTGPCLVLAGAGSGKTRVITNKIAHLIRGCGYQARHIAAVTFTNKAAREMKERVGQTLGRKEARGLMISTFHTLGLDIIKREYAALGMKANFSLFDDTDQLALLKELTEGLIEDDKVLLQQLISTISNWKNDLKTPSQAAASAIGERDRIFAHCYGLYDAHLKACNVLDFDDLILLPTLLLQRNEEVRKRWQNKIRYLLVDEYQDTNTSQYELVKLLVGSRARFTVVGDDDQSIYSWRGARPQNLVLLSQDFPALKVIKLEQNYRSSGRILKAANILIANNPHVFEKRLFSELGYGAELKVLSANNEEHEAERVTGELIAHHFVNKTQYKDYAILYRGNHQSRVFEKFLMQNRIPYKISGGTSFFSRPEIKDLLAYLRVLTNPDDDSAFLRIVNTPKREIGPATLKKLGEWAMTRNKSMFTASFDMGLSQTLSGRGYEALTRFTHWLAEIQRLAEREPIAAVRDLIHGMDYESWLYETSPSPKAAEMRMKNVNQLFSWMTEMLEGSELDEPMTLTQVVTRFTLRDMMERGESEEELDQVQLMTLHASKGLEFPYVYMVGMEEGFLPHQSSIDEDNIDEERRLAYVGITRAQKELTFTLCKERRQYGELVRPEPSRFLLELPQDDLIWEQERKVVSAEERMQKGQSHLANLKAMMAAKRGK
Assay: not stated; apparent KD (equilibrium dissociation constant), Figure S5; the method is not told in the text shown (SPR is the only quantitative binding method that the paper names)
Details: both partners purified

B1: E. coli replicative helicase DnaB, purified (enzyme, UniProt P0ACB0 1-471, looked up)
chain: MAGNKPFNKQQAEPRERDPQVAGLKVPPHSIEAEQSVLGGLMLDNERWDDVAERVVADDFYTRPHRHIFTEMARLQESGSPIDLITLAESLERQGQLDSVGGFAYLAELSKNTPSAANISAYADIVRERAVVREMISVANEIAEAGFDPQGRTSEDLLDLAESRVFKIAESRANKDEGPKNIADVLDATVARIEQLFQQPHDGVTGVNTGYDDLNKKTAGLQPSDLIIVAARPSMGKTTFAMNLVENAAMLQDKPVLIFSLEMPSEQIMMRSLASLSRVDQTKIRTGQLDDEDWARISGTMGILLEKRNIYIDDSSGLTPTEVRSRARRIAREHGGIGLIMIDYLQLMRVPALSDNRTLEIAEISRSLKALAKELNVPVVALSQLNRSLEQRADKRPVNSDLRESGSIEQDADLIMFIYRDEVYHENSDLKGIAEIIIGKQRNGPIGTVRLTFNGQWSRFDNYAGPQYDDE
notes: replicative helicase DnaB, E. coli; Construct and purification are in the Supplemental Experimental Procedures; also called E. coli DnaB
Kd: < 100 nM
